The target in experiment [1] is SARS-CoV-2 PT RBD (residues 319-541) (SARS-CoV-2) (UniProt P0DTC2). Briefly: SPR.
The target is the same in experiment [2]. Briefly: SPR. The source holds these as a separate data set.

Read-outs that look alike come from different tables or passages of the source.

Regarding “rabbit ACE2 (residues 1-615), 293F-expressed (from UniProt G1TEF4)”, the dissociation constant (Kd) in experiment [1] is 155 nM; in experiment [2], 161 nM.

hare ACE2 (residues 1-615) registered a Kd in experiment [2] of 171 nM.

Source of the values: article PMC10870819.
